In publication PMC7695343, “Structural Insight into Integrin Recognition and Anticancer Activity of Echistatin” (2020):

Target: integrin αvβ3 expressed on CHO cells (CHO-αvβ3) (UniProt P06756)

Ech (K45E) (natural protein)
IC50 of inhibition of migration of human melanoma A375 cells (transwell, 6 h): 13.3 nM
